The target of experiment [1] is carcinoembryonic antigen (CEA) on human cancer cell lines, human, P06731 35-685. The experiment is described as follows: cell-based or functional assay.
The target of experiment [2] is epidermal growth factor receptor (EGFR) on human cancer cell lines, human, P00533 25-1210. The experiment can be described thus: cell-based or functional assay.

With C7PFO (anti-CEA Fn3-perfringolysin O), in experiment [1], the IC50 of cytotoxicity on HT-29 cells worked out at 120 pM and the IC50 of cytotoxicity on HT-1080 (CEA) cells was 7 pM.

Take E6PFO (anti-EGFR Fn3-perfringolysin O): in experiment [2], the IC50 of cytotoxicity on A431 cells is 540 pM, the IC50 of cytotoxicity on HT-29 cells turned out to be 15 pM and the IC50 of cytotoxicity on HT-1080 (CEA) cells stood at 10 pM.

These data come from patent US20150174265, “REVERSIBLE MASKING OF PORE-FORMING PROTEINS FOR MACROMOLECULAR DELIVERY” (published 2015).
